Here are results for 63 compounds from PubChem BioAssay AID488890 (Southern Research Specialized Biocontainment Screening …, 2010).

Some of the results follow. Records with an inconclusive call do not appear. The rule behind the calls is not given here.

A short description of the test: growth inhibition of non-replicating M. tuberculosis (AID 488890).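 Note: plate controls were DMSO cells for no effect and high antibiotic wells for full effect.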 To be noted: Mycobacterium tuberculosis non-replicating, at 25 µM, stronger effect = higher value.
Usually inhibition stands for the drop in the measured response relative to a control, in per cent. For the compound `CSc1ccccc1C(=O)NCC1(N2CCCCC2)CCCCC1`, the inhibition is 28.6%.
In the case of `CC(C)(C)OC(=O)N1CCC(N(C(=O)c2ccccc2)c2ccc(F)cc2)CC1`, the inhibition is -19.4%.
Take `COc1ccc(C(=O)NCC2(N3CCCCC3)CCCCC2)c(OC)c1OC`: the inhibition is -11.7%.
As for `COc1ccc(C(=O)NCC2(N3CCCCC3)CCCCC2)cc1`, the inhibition was found to be 29.9%.
For the compound `O=C(NCC1(N2CCCCC2)CCCCC1)c1cccs1`, the inhibition was determined as 19%.
On to `O=C(NCC1(N2CCCCC2)CCCCC1)c1ccc(=O)[nH]c1`, for which the inhibition worked out at 0.267%.
On to `COc1ccc(Cl)cc1C(=O)NCC1(N2CCOCC2)CCCCC1`, for which the inhibition stood at 10.4%.
For the compound `O=C(NCC1(N2CCCCC2)CCCCC1)c1ccc(Cl)s1`, the inhibition was 27.2%.
With `N#CC1(Nc2ccccc2)CCN(Cc2ccccc2)CC1`, the inhibition is -4.22%.
Consider `CCOC(=O)N1CCC(Nc2ccc(OC)cc2)CC1`, for which the inhibition came to 31.6%.
As to `Cc1cc(C)cc(N(C(=O)c2ccccc2)C2CCN(C(=O)OC(C)(C)C)CC2)c1`, the inhibition came out at 63.9%.
On to `O=C(NCC1(N2CCCCC2)CCCCC1)c1ccc(Cl)nc1`, for which the inhibition stood at 33.6%.
`O=C(NCC1(N2CCOCC2)CCCCC1)c1cc2ccccc2o1`: the inhibition was found to be 44.5%.
Turning to `CCOC(=O)N1CCC(Nc2ccc(F)cc2)CC1`, the inhibition worked out at 77.5%.
In the case of `O=C(NCC1(N2CCCCC2)CCCCC1)c1ccc(F)cc1`, the inhibition came out at 11.7%.
Consider `CCOc1ccc(C)cc1CN(CCCl)CCCl`, for which the inhibition is -12.6%.
Regarding `Cc1ccc(OCC(C)C)c(CN(CCCl)CCCl)c1`, the inhibition was 43.9%.
For `CCOC(=O)N1CCC(Nc2cccc(C)c2)CC1`, the inhibition turned out to be 3.24%.
As for `COc1cc(C(=O)NCC2(N(C)C)CCCCC2)ccc1OC(F)F`, the inhibition is -5.28%.
Take `N#CC1(Nc2ccccc2)CCN(CCc2ccccc2)CC1`: the inhibition is -4.17%.
`CCN1CCC(Nc2ccc(Cl)cc2)CC1`: the inhibition was -23.8%.
As to `O=C(NCC1(N2CCCCC2)CCCCC1)c1cccc([N+](=O)[O-])c1`, the inhibition was 11%.
With `O=C(NCC1(N2CCCCC2)CCCCC1)c1ccc(OC(F)F)cc1`, the inhibition was 27.5%.
As for `COc1cc(C(=O)NCC2(N3CCCCC3)CCCCC2)ccc1OC(F)F`, the inhibition was 25.7%.
Take `O=C(NCC1(N2CCOCC2)CCCCC1)c1cc(=O)[nH]c2ccccc12`: the inhibition was -15%.
As to `CN1CCN(CCOC(=O)C(O)(c2ccccc2)c2ccccc2)CC1`, the inhibition was -0.26%.
For the compound `COc1ccc(NC2CCN(C(=O)OC(C)(C)C)CC2)cc1`, the inhibition stood at 31.7%.
Take `O=C(NCC1(N2CCCCC2)CCCCC1)c1cccc(C(F)(F)F)c1`: the inhibition is 0.6%.
With `O=C(NCC1(N2CCOCC2)CCCCC1)c1cc(F)c(F)cc1Cl`, the inhibition was -0.01%.
For the compound `COc1cc(OC)c(C(=O)NCC2(N(C)C)CCCCC2)cc1OC`, the inhibition is 4.22%.
For `CC(C)c1ccc(NC2CCN(C(=O)OC(C)(C)C)CC2)cc1`, the inhibition came to 34%.
For the compound `CN(C)c1cccc(C(=O)NCC2(N3CCCCC3)CCCCC2)c1`, the inhibition was found to be 19.7%.
With `COc1ccc(CN(CCCl)CCCl)cc1Cl` the figure was -13.1%; with `CCCOc1ccc(C(=O)NCC2(N(C)C)CCCCC2)cc1OC`, -2.11%.
As for `CN1CCC(Nc2cccc(F)c2)CC1`, the inhibition is 4.83%.
For `O=C(NCC1(N2CCCCC2)CCCCC1)c1cncc(Br)c1`, the inhibition came out at 20.4%.
On to `COc1ccc(C(=O)NCC2(N3CCOCC3)CCCCC2)cc1OC`, for which the inhibition was -3.21%.
As to `COc1cc(C(=O)NCC2(N3CCOCC3)CCCCC2)cc(OC)c1C`, the inhibition was 28.8%.
With `O=C(NCC1(N2CCOCC2)CCCCC1)c1cc(Br)ccc1Cl`, the inhibition came to 35.5%.
For the compound `O=C(OC1CN2CCC1CC2)C1c2ccccc2C=Cc2ccccc21` (stereo not drawn), the inhibition came to 6.35%.
For `CCOC(=O)N1CCC(Nc2ccc(C)cc2)CC1`, the inhibition turned out to be 15.4%.
As for `N/C(=N\O)c1c(N)no[n+]1[O-]`, the inhibition stood at 0.49%.
Consider `N#Cc1ccc(C(=O)NCC2(N3CCCCC3)CCCCC2)cc1`, for which the inhibition is -9.91%.
For the compound `CC(C)(C)OC(=O)N1CCC(N(C(=O)c2ccccc2)c2ccc(Cl)cc2)CC1`, the inhibition was determined as 14.1%.
Turning to `CN(C)C1(CNC(=O)c2cccc(C#N)c2)CCCCC1`, the inhibition is -8.28%.
Take `CCCN1CCC(Nc2cc(OC)cc(OC)c2)CC1`: the inhibition is -4.44%.
For the compound `c1ccc(CN2CCC(Nc3ccccc3)CC2)cc1`, the inhibition was -10.1%.
As for `Fc1ccccc1NC1CCN(Cc2ccccc2)CC1`, the inhibition was -5.87%.
Consider `Cc1ccc(C(=O)NCC2(N3CCCCC3)CCCCC2)o1`, for which the inhibition worked out at 2.98%.
As to `COc1cc(OC)cc(C(=O)NCC2(N3CCCCC3)CCCCC2)c1`, the inhibition is -11%.
As for `CN(C)c1ccc(C(=O)NCC2(N3CCCCC3)CCCCC2)cc1`, the inhibition was -1.54%.
Consider `O=C(NCC1(N2CCCCC2)CCCCC1)c1ccco1`, for which the inhibition was 33.8%.
As to `CCN1CCC(Nc2cccc(F)c2)CC1`, the inhibition was determined as 6.61%.
Take `O=C(O)C1(Nc2ccccc2)CCN(Cc2ccccc2)CC1`: the inhibition is -3.54%.
In the case of `CC(C)(C)OC(=O)N1CCC(Nc2ccccc2)CC1`, the inhibition is 28.7%.
As to `CCCOc1ccc(C(=O)NCC2(N(C)C)CCCCC2)cc1`, the inhibition was -4.85%.
With `CN1CCC(Nc2ccc(F)c(Cl)c2)CC1`, the inhibition is -5.52%.
For `CCOc1ncccc1C(=O)NCC1(N2CCOCC2)CCCCC1` the value was 8.5%; for `CN1CCC(Nc2ccc(Cl)cc2)CC1`, -0.38%.
On to `CCCOc1ccc(C)cc1CN(CCCl)CCCl`, for which the inhibition came out at 11.7%.
For `COc1cc(OC)cc(C(=O)NCC2(N3CCOCC3)CCCCC2)c1` the value was 12.4%; for `COc1cccc(C(=O)N(c2cc(C)cc(C)c2)C2CCN(C(=O)OC(C)(C)C)CC2)c1`, 5.45%; for `CCC(CO)(C(=O)OC1CN2CCC1CC2)c1ccccc1` (stereo not drawn), -17.4%.
